The values are deposited in ChEMBL (CHEMBL3988442, “University of Dundee, Small-Polar-MMV Screening Library” (2021)).

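Phenotypic screen: M. tuberculosis growth, cholesterol and DPPC medium, 4 days; the read-out is not stated. Compounds at 50 µM. Direction is inferred from retests: higher values go with more growth inhibition. About 69,000 compounds were tested under these conditions; 0.54% (about 370) showed 50% or more at least once.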

Results are given as percent effect.
How 0% and 100% were set is not recorded. Most values in the screen are low, and negative values occur.
Many other results are left out here, so strong results are more common than in the screen.
Two or more numbers in one place are separate tests of the same structure; such repeats can differ widely.

SMILES	effect
Cc1ccc(N2CC[C@H](OCC3CC3)[C@@H]2Cc2cccnc2)nn1.O=C(O)C(F)(F)F	-10.45
[H][C@@]12C[C@@H](Oc3cccnc3)CN1CCN(C(=O)c1cccn1C)C2	52.39
CN(Cc1ccccc1F)C(=O)c1cc(Cl)c[nH]1	29.92
FC(F)Sc1ccc(NCc2nnc(C3CC3)o2)cc1	51.93
CCOc1cc2c(cc1CNC(Cc1cccs1)c1nccs1)OCO2.Cl (centres undefined)	10.55 & 14.23
CCc1c(C)sc(NC(=O)CN2CCOCC2)c1C(=O)OC	15.87
CC(C)(C)OC(=O)N1CCC(NC2CC2)CC1	5.466
COCCNc1nnc(-c2ccc(C)nc2)s1	-8.728
COc1ccc(C[C@H]2CN(C(=O)c3ccc(C)nc3)CC[C@@H]2OC)cc1.O=C(O)C(F)(F)F	4.109
CCCNC(=O)NC(=O)CNC(C)(C)c1ccc2c(c1)OCCO2	69.64
CCSCCNc1cc(C)nc2c(C)c(C)nn12	79.6 & 92.14
CCCc1ccc2oc(C(=O)N3CCN(CCC(N)=O)CC3)c(C)c2c1	5.772
CCc1cc(C(=O)N2CCC(c3cc4ncccc4cn3)CC2)on1	16.47
CCc1c(C(=O)NCC(=O)OCC2CC2)cnn1-c1ccc(C)cc1	58.4
C=Cc1ccc(C(=O)N2CCCC(Nc3ccc(F)c(F)c3)C2)cc1 (centres undefined)	50.5 & 32.52
CC(C)N1CC(C(=O)N2CCC(Oc3ccccc3Cl)CC2)CC1=O (centres undefined)	0.08581 & -8.648
Cc1nnsc1C(=O)NCCNS(=O)(=O)c1cccs1	-20.96
CNC(=O)N1CCC(=Cc2ccccc2)CC1	4.843
CCCN(CCn1c(=O)oc2ccccc21)CC1CC1	75.44
O=C(NC1CCCN(CCCc2ccccc2)C1)C1=CCCCC1 (centres undefined)	19.32
Cc1nc(CCNc2ccc(-c3nc(C)c(C)c(=O)[nH]3)cn2)cs1	-11.68
COc1cc(CN2CCCC(Nc3cccc(F)c3)C2)cc(OC)c1O (centres undefined)	29.83
COc1ccc(C(CNS(=O)(=O)c2cn(C)nc2C)N2CCCC2)cc1.Cl (centres undefined)	-8.429 & -37.38
Cc1ccsc1CN1CCc2nc3ccsc3c(=O)n2CC1.Cl	-10.82
Cc1nc(CN2CCCC(N(C)CCc3cccs3)C2)no1 (centres undefined)	-23.83
COc1cccc(CN2CCc3nc4ccsc4c(=O)n3CC2)c1.Cl	-15.37
CC(C)CC(NC(=O)Nc1ccc(F)c(Cl)c1)C(=O)O (centres undefined)	8.272
CCc1cc(CNC(=O)N(C2CC2)C(C)c2ccco2)[nH]n1 (centres undefined)	7.124
CC1(C)CCC(C(=O)N2CCCO2)c2ccccc21 (centres undefined)	52.24
O=C(CSCC1CC1)N1CCCN(Cc2ccc(F)cc2)CC1	20.28
CC(O)CCN(C)C(=O)Nc1cc(F)cc(Br)c1 (centres undefined)	-12
CCCc1nnc(N2CC[C@@](O)(C3CCOCC3)[C@H](C)C2)s1	-34.09
COCc1noc(-c2ccc(N(C)Cc3nccs3)nc2)n1	6.647 & 19.35
COC(=O)c1cccc(CNC(=O)NCCC(F)(F)F)c1	-0.7745
CC(C)n1cnc(C2CN(C)c3ccc(C(=O)NCC4CC4)cc32)n1 (centres undefined)	77.54 & -21.96
CC(=O)c1ccc(Nc2nc(N)nc3c2nc(C)n3C)cc1	-15.75
O=C(O)C(F)(F)F.[H][C@@]12CCN(CCc3ccccc3)C[C@]1([H])[C@@H](CNS(C)(=O)=O)OC2	57.57
COc1ccc(OCCN2CCCN(Cc3noc(C)n3)CC2)cc1	-16.97
c1ccc(C2CN(C3CC3)CC3(CCN(Cc4ncc[nH]4)CC3)C2)cc1 (centres undefined)	-6.298
CN1CCOC(CNCCOc2cccc(C#N)c2)C1 (centres undefined)	-0.5242 & 79.98
CC(C)C(=O)N1CCN(Cc2cnn(C)c2)CC2(CC(=O)N(C)C2)C1.O=C(O)C(F)(F)F (centres undefined)	-1.975
Cn1cc(C[C@H]2[C@H](O)CCN2Cc2ccc(F)cc2)cn1.O=C(O)C(F)(F)F	-11.09 & -18.16
CC(C)c1ccc(CN2CCN(C(=O)c3cc(C4CC4)[nH]n3)CC2)cc1	-29.84
COCCN1CCN(CCS(=O)(=O)C(F)(F)F)CC1C (centres undefined)	-0.9735
Cc1ccc(CN2CCC3(CCCC(=O)N3)CC2)s1.O=C(O)C(F)(F)F	10.31